In article doi:10.1101/2022.12.01.518643 (bioRxiv, 2022):

The sequences below were run on HLA alleles of HEK293 cells (assay: HLA restriction of naturally processed OC43 peptides). Settings: MHC-II peptides; elution, binding and T cell assays.
Parameters: species or system human
In the case of “GAFFFGSRLELAKVQN [Peptide P2, OC43 nucleoprotein 321–336, naturally processed peptide eluted from HLA-DP]”, the HLA restriction is reported as “DP4”. In the case of “SRQYLLAFNQDGIIFN [Peptide P13, OC43 spike 271–286, naturally processed peptide eluted from HLA-DR]”, the HLA restriction is reported as “DR2b”. For “EGQQIIFYEGVNFTP [Peptide P8, OC43 hemagglutinin esterase 93–107, naturally processed peptide eluted from HLA-DR]”, the HLA restriction was “DR2b”. “YLAISNELLLTVPTK [Peptide P1, OC43 hemagglutinin esterase 259–273, naturally processed peptide eluted from HLA-DP]” was tested, and the HLA restriction was “DP4”. In the case of “LTALNAYVSQQLSDS [Peptide P11, OC43 spike 1085–1099, naturally processed peptide eluted from HLA-DR]”, the HLA restriction is reported as “DR2b”. In the case of “LFYTQVYKNMAVYRS [Peptide P9, OC43 hemagglutinin esterase 128–142, naturally processed peptide eluted from HLA-DR]”, the HLA restriction is reported as “DR2a,DR2b”. “LSDFINGIFAKVKNTK [Peptide P3, OC43 spike 97–111, naturally processed peptide eluted from HLA-DP]” was tested, and the HLA restriction was “DP4”. “IHFSYVPTKYVTARVSPG [Peptide P7, OC43 spike 1147–1164, naturally processed peptide eluted from HLA-DP]” was tested, and the HLA restriction was “DP4”. “PSGGNVVPYYSWFSG [Peptide P10, OC43 nucleoprotein 54–68, naturally processed peptide eluted from HLA-DR]” was tested, and the HLA restriction was “DR2b”. In the case of “NRGRQFYEFYNDVKPP [Peptide P14, OC43 envelope 62–78, naturally processed peptide eluted from HLA-DP]”, the HLA restriction is reported as “DP4”. For “ITTGYRFTNFEPFT [Peptide P5, OC43 spike 760–773, naturally processed peptide eluted from HLA-DP]”, the HLA restriction was “DP4”. For “APYGLYFIHFSYVPTK [Peptide P6, OC43 spike 1140–1155, naturally processed peptide eluted from HLA-DP]”, the HLA restriction was “DP4”.
